Laboratory results: patent publication US5786462

Tested on: HIV-1 reverse transcriptase (Human immunodeficiency virus 1)
Assay: activity assay
Settings: purified recombinant protein, label: 5'-32P, single-stranded DNA
[1] = intramolecular 3' extension with premature termination, data not shown

Sequence | activity on this sequence [1] | activity on this sequence (intramolecular 3' extension, initiation nearly 100%, stops after 5-8 nt)
ATCCGCCTGATTAGCGATACTCGTATAGGTCCCCTGCCGCTAAACAGCGCCGCGGTAACTTGAGCAAAATCACCTGCAGGGG [RT12] | active | –
ATCCGCCTGATTAGCGATACTTATTTGCCCTTGCAGGCCGCAGGAGTGCTAGCAGTACTTGAGCAAAATCACCTGCAGGGG [RT10] | active | –
ATCCGCCTGATTAGCGATACTTACGTGAGCGTGCTGTCCCCTAAAGGTGATACGTCACTTGAGCAAAATCACCTGCAGGGG [RT26] | – | active
